Pooled drug test results. Numbers come from NIAID ChemDB, via PubChem.

All rows: target-level tests; organism: HIV-1; target: Reverse transcriptase; endpoint: fold resistance

An empty or dashed field is not shown. Conditions beyond the fields shown may differ between rows. Fold resistance has wild type as its base. Two numbers with a dash give a range or band.

SMILES,method,strain,changes,value
CCc1ccc(-n2c(C)nnc2SCC(=O)Nc2ccc(S(N)(=O)=O)cc2C)c2ccccc12,nucleotide incorporation / radiometric,-,RT-Y188L,>2
CC(C)=CCOc1cc(NC(=S)c2ccoc2C)ccc1Cl,-,-,RT-M184V,1.31
CCN1c2ncc(CCOc3ccc(NC(=O)CC4(C(=O)O)CCCC4)cc3C)cc2C(=O)N(C)c2cccnc21,nucleotide incorporation / radiometric,IIIB,RT-K103N Y181C,>2
CCOC(=O)C(=O)CC(=O)/C=C/c1cccn1Cc1ccccc1Cl,RNase H / radiometric,-,N474A,12.2
Cc1cc(S(N)(=O)=O)ccc1NC(=O)COc1ccccc1C(=O)c1cc(Cl)cc(C#N)c1,fluorescence,NNRTI-resistant,RT-Y181C,1.6
CCOC(=O)CCNC(=O)c1ccc(NC(=O)CSc2nnc(Br)n2-c2ccc(CC)c3ccccc23)c(Cl)c1,nucleotide incorporation / radiometric,-,RT-Y188L,>1
Nc1ccn([C@H]2CC[C@@H](COP(=O)(O)OP(=O)(O)OP(=O)(O)O)O2)c(=O)n1,nucleotide incorporation,-,RT-K65R,3.5
CC(C)=CCN1Cc2cccc3[nH]c(=S)n(c23)C[C@@H]1C,nucleotide incorporation,-,RT-Y188L,>611
CCN1c2ncc(CCOc3ccc(C(=O)O)c4c3CCCC4)cc2C(=O)N(C)c2ccc(F)nc21,nucleotide incorporation / radiometric,-,RT-K103N Y181C,1–10
CC(C)Nc1cccnc1N1CCN(C(=O)c2cc3ccc(O)cc3[nH]2)CC1,scintillation proximity,-,RT-Y188L,2.27
CCN1c2ncc(CCOc3ccc(C(C)CC(=O)O)c4ccccc34)cc2C(=O)N(C)c2cccnc21,nucleotide incorporation / radiometric,-,RT-K103N Y181C,1–10
CC1=C(C(=O)Nc2ccc(Cl)c(C(=O)OC(C)C)c2)SCCO1,nucleotide incorporation,-,RT-E138K,20
CCN1c2ncc(CCOc3ccc(NC(=O)CC(C)(C)C(=O)O)cc3C)cc2C(=O)N(C)c2cccnc21,nucleotide incorporation / radiometric,IIIB,RT-K103N Y181C,>2
CCC(=O)c1ccc(F)c([C@H]2C[C@H]2NC(=O)Nc2ccc(Br)cn2)c1O,-,IIIB,RT-L100I,2.92
CCN1c2ncc(CCOc3ccc(NC(=O)CC(C)(C)C(=O)O)c4ccccc34)cc2C(=O)N(C)c2cccnc21,nucleotide incorporation / radiometric,-,RT-Y188L,>10
Nc1nc2c(ncn2[C@H]2CC[C@@H](COP(=O)(O)OP(=O)(O)OP(=O)(O)O)O2)c(=O)[nH]1,radiometric,-,RT-W229F,1.61
CC(C)=CCOc1cc(NC(=S)c2ccsc2C)ccc1Cl,-,-,RT-P236L,1.5
CCN1c2ncc(CCOc3ccc(C(=O)O)c4c3CCCC4)cc2C(=O)N(C)c2ccc(Cl)nc21,nucleotide incorporation / radiometric,-,RT-Y188L,1–10
CCN1c2ncc(CCOc3ccc(-c4cc(CC(=O)O)ccc4OC)cc3C)cc2C(=O)N(C)c2cccnc21,nucleotide incorporation / radiometric,IIIB,RT-K103N Y181C,>1
CCN1c2ncc(CCOc3ccc(CCC(=O)O)c4ccccc34)cc2C(=O)N(C)c2ccc(Cl)nc21,nucleotide incorporation / radiometric,-,RT-K103N Y181C,1–10
CC[C@H]1C(=O)Nc2ccc(F)cc2N1C(=O)OC(C)C,radiometric,-,RT-W229Y,4.75
CCN1c2ncc(CCOc3ccc(C(=O)O)c4c3CCN(C(=O)OC)C4)cc2C(=O)N(C)c2cccnc21,nucleotide incorporation / radiometric,-,RT-Y188L,1–10
O=C1NCC(CCC2(C(F)(F)F)OC(=O)Nc3ccc(Cl)cc32)O1,nucleotide incorporation,A17,RT-K103N Y181C,1
Cc1cc(C)c(-n2nnnc2SCC(=O)Nc2ccc3c(c2)OCO3)c(C)c1,fluorescence,-,RT-K103N Y181C,>2
CCN1c2ncc(CCOc3ccc(CCC(=O)O)c4c3CCCC4)cc2C(=O)N(C)c2ccc(Cl)nc21,nucleotide incorporation / radiometric,-,RT-K103N Y181C,1–10
CCN1c2ncc(CCOc3ccc(-c4ccc(F)c(C(=O)O)c4)cc3)cc2C(=O)N(C)c2cccnc21,nucleotide incorporation / radiometric,IIIB,RT-K103N Y181C,>2
NCCCCNc1nc(Cc2ccccc2)cc(=O)[nH]1,-,-,RT-V179D,>14.3
CC(C)=CCOc1cc(NC(=S)c2ccoc2C)ccc1Cl,nucleotide incorporation,-,RT-W229Y,21.81
Cc1cc(C)c(-n2c(SCC(=O)Nc3ccc(S(N)(=O)=O)cc3Cl)nnc2C(F)(F)F)c2c1CCCC2,nucleotide incorporation / radiometric,-,RT-Y181C,>2
O=c1cc(Cc2ccccc2)nc(NCCCCO)[nH]1,-,-,RT-Y188L,>2.44
CCc1cc(NCc2nc3c(C)ccc(C)c3o2)c(=O)[nH]c1C,nucleotide incorporation,-,RT-Y181H,24.3
CCN1c2ncc(CCOc3cccc4c3ccc[n+]4[O-])cc2C(=O)N(C)c2ccc(Cl)nc21,nucleotide incorporation / radiometric,-,RT-Y188L,43.9
CCN1c2ncc(CCOc3ccc(-c4nccn4C)cc3C)cc2C(=O)N(C)c2cccnc21,nucleotide incorporation / radiometric,IIIB,RT-K103N Y181C,>1
CC(C)=CCN1Cc2cc(Cl)cc3[nH]c(=O)n(c23)C[C@@H]1C,RT activity,-,RT-L100I,155
CCN1c2ncc(CCOc3ccc(S(=O)(=O)NC(C)=O)c4ccccc34)cc2C(=O)N(C)c2cccnc21,nucleotide incorporation / radiometric,-,RT-Y188L,>10
O=C(CSc1nnnn1-c1ccccc1C(F)F)Nc1ccccc1[N+](=O)[O-],fluorescence,-,RT-K103N Y181C,≥1.33
CCOC(=O)c1c(C(C)C)c(C#N)c(=N)n2ccccc12,-,-,RT-Y188L,0.977
COc1ccc2c(c1)N(C(=O)OC(C)C)[C@@H](CSC)C(=S)N2,radiometric,-,RT-W229F,1.15
CCN1c2ncc(CCOc3ccc(/C=C/C(=O)O)c4ccccc34)cc2C(=O)Nc2c(C)ccnc21,nucleotide incorporation / radiometric,-,RT-V106A,1–10
CCOCn1c(Cc2ccccc2)c(C(C)C)c(=O)[nH]c1=O,radiometric,-,RT-W229Y,8.44
CCN1c2ncc(CCOc3ccc(NC(=O)CCC(=O)O)cc3C)cc2C(=O)N(C)c2cccnc21,nucleotide incorporation / radiometric,IIIB,RT-K103N Y181C,>1
CCN1c2ncc(CCc3ccncc3)cc2C(=O)N(C)c2ccc(Cl)nc21,RT activity,IIIB,RT-K103N,0.625
CCN1c2ncc(CCOc3ccc(NC(=O)c4ccc(Cl)nc4)cc3C)cc2C(=O)N(C)c2cccnc21,nucleotide incorporation / radiometric,IIIB,RT-K103N Y181C,1
CCN(CC)c1ccc(-n2nnnc2SCC(=O)Nc2ccc(S(N)(=O)=O)cc2C)c(Cl)c1,fluorescence,-,RT-K103N Y181C,≥1.33
CCN1c2ncc(CCOc3ccc(N(Cc4ccc(C(=O)O)cc4)C(C)=O)cc3C)cc2C(=O)N(C)c2cccnc21,nucleotide incorporation / radiometric,IIIB,RT-K103N Y181C,>1
CCn1c2cc(=NN=[N-])ccc-2[n+](C)c(=O)c2cccnc21,nucleotide incorporation,-,RT-Y188L,87.1

For reference, 3 entries again:

SMILES | method | strain | changes | value
O=c1cc(Cc2ccccc2)nc(NCCCCO)[nH]1 | - | - | RT-Y188L | >2.44
Cc1cc(C)c(-n2c(SCC(=O)Nc3ccc(S(N)(=O)=O)cc3Cl)nnc2C(F)(F)F)c2c1CCCC2 | nucleotide incorporation / radiometric | - | RT-Y181C | >2
CC(C)=CCN1Cc2cccc3[nH]c(=S)n(c23)C[C@@H]1C | nucleotide incorporation | - | RT-Y188L | >611